# Assay results: patent publication US20230338478A1 (University of Pennsylvania, published 2023)
# B1: ACE2-wt-Fc4 (Fc fusion)
# chain: not shown
# Key:
# [1] = target: WT SARS-CoV-1 RBD (purified recombinant, His6) (SARS-CoV-1); experiment: SPR, decoy-Fc captured on protein A/G chip, RBD injected, 1:1 fit
# [2] = target: T1, WT SARS-CoV-2 RBD (purified recombinant, His6) (SARS-CoV-2); experiment: as above
# T1 construct: range […]
binder,measurement,setting,value
B1,Kd,[1],92.4 nM
same,koff,[1],0.0394 s⁻¹
same,kon,[1],426000 M⁻¹ s⁻¹
same,Kd,[2],28.6 nM
same,koff,[2],0.0144 s⁻¹
same,kon,[2],505000 M⁻¹ s⁻¹
